Reference: PubChem BioAssay AID624099 (ICCB-Longwood, 2012)
In all, the deposit lists about 21,000 reagents; shown is a random part of them. In the full data, 497 (2.4%) are marked active. 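Higher z means weaker E2 silencing; only reporter increases were scored, and knock-downs that hurt cell survival may mask genuine repressor factors.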 Reagents against one gene are numbered here.

Screen: 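Host factors E2 relies on to silence an HPV18 LCR reporter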 (primary screen)
Cells: human C33A cervical carcinoma cells (HPV-negative) stably expressing BPV1 E2 and an HPV18 LCR luciferase reporter
Reagent: siRNA pool against human genes, 40 nM
Timing: 72 h
Read-out: 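HPV18 LCR reporter light per well, converted to plate-wise z-scores that exclude control wells, and averaged over triplicate plates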
Scale: mean z-score and z-score: higher = stronger reporter signal, weaker E2 silencing
Call rule: 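Mean z ≥ 2 together with z ≥ 2 in two or more of the three replicates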

Against LOC388388 (retired record), the entry reads mean z-score 0.89; z-score, replicate A = 1.08; z-score, replicate B = 0.55; z-score, replicate C = 1.04; inactive.
Knock-down of ANKRD26 (ankyrin repeat domain 26) came out at: mean z-score -0.32; z-score, replicate A = -0.39; z-score, replicate B = -0.16; z-score, replicate C = -0.39; inactive.
OSGIN1 (oxidative stress induced growth inhibitor 1) showed mean z-score 0.25; z-score, replicate A = -0.61; z-score, replicate B = 0.14; z-score, replicate C = 1.21; inactive.
After knock-down of CHTF18 (chromosome transmission fidelity factor 18), the record shows mean z-score -0.83; z-score, replicate A = -0.99; z-score, replicate B = -0.95; z-score, replicate C = -0.55; inactive.
Silencing of LIPF (lipase F, gastric type) came out at: mean z-score -0.61; z-score, replicate A = -0.6; z-score, replicate B = -0.56; z-score, replicate C = -0.68; inactive.
Silencing of ITGA10 (integrin subunit alpha 10) gave: mean z-score -0.79; z-score, replicate A = -0.98; z-score, replicate B = -0.72; z-score, replicate C = -0.68; inactive.
Against GRM4 (glutamate metabotropic receptor 4), the values are mean z-score -0.29; z-score, replicate A = -0.19; z-score, replicate B = -0.26; z-score, replicate C = -0.41; inactive.
Knock-down of DEUP1 (deuterosome assembly protein 1) gave: mean z-score 0.35; z-score, replicate A = 0.69; z-score, replicate B = 0.03; z-score, replicate C = 0.33; inactive.
For CTDSP1 (CTD small phosphatase 1), the entry reads mean z-score -0.78; z-score, replicate A = -0.69; z-score, replicate B = -1.04; z-score, replicate C = -0.62; inactive.
For DNAH8 (dynein axonemal heavy chain 8) #1, the entry reads mean z-score -0.98; z-score, replicate A = -1.05; z-score, replicate B = -0.68; z-score, replicate C = -1.2; inactive.
Knock-down of DNAH8 (dynein axonemal heavy chain 8) #2 came out at: mean z-score 0.46; z-score, replicate A = 0.46; z-score, replicate B = 0.63; z-score, replicate C = 0.29; inactive.
Against GRM3 (glutamate metabotropic receptor 3), the entry reads mean z-score -0.34; z-score, replicate A = -0.16; z-score, replicate B = -0.2; z-score, replicate C = -0.66; inactive.

An excerpt from above, limited to “mean z-score”:
CTDSP1 (CTD small phosphatase 1) = -0.78
DNAH8 (dynein axonemal heavy chain 8) #1 = -0.98

Continued:
CACTIN (cactin, spliceosome C complex subunit) gave mean z-score -0.19; z-score, replicate A = -0.11; z-score, replicate B = -0.48; z-score, replicate C = 0.02; inactive.
Depletion of AMFR (autocrine motility factor receptor) gave: mean z-score -0.99; z-score, replicate A = -0.85; z-score, replicate B = -1.31; z-score, replicate C = -0.82; inactive.
GPR146 (G protein-coupled receptor 146) gave mean z-score 1.1; z-score, replicate A = 1.22; z-score, replicate B = 1.12; z-score, replicate C = 0.96; inactive.
TBL1Y (transducin beta like 1 Y-linked) showed mean z-score -0.2; z-score, replicate A = -0.58; z-score, replicate B = -0.22; z-score, replicate C = 0.2; inactive.
Depletion of ZPBP (zona pellucida binding protein) gave: mean z-score -1.13; z-score, replicate A = -0.94; z-score, replicate B = -1.38; z-score, replicate C = -1.07; inactive.
REG1CP (regenerating family member 1 gamma, pseudogene) scored mean z-score 1.59; z-score, replicate A = 1.74; z-score, replicate B = 1.54; z-score, replicate C = 1.48; inactive.
PHF6 (PHD finger protein 6) scored mean z-score 2.42; z-score, replicate A = 2.4; z-score, replicate B = 2.5; z-score, replicate C = 2.35; active.
C3P1 (complement 3 precursor pseudogene) gave mean z-score 0.56; z-score, replicate A = 0.71; z-score, replicate B = 0.42; z-score, replicate C = 0.54; inactive.
Against DBP (D-box binding PAR bZIP transcription factor), the values are mean z-score -1.08; z-score, replicate A = -0.79; z-score, replicate B = -1.53; z-score, replicate C = -0.92; inactive.
